Anti-infective test results gathered from many reports (values: NIAID ChemDB through PubChem).

All rows: growth or infection tests

Neighbouring rows are from separate reports. Fold resistance has wild type as its base. MIC50, MIC90 and the like: level of inhibition, or share of isolates inhibited. ECn is the concentration giving n% inhibition of infection, replication or growth. Inhibition is in % at the dose shown (toxicity tests: loss of growth or viability).

{"SMILES": "Nc1nc2c(ncn2COC(CO)CO)c(=O)[nH]1", "species": "Guinea pig cytomegalovirus", "cell line": "HFF", "method": "plaque count", "read-out": "EC50", "result": "191 µM"}
{"SMILES": "O=C1N(CCCCCOc2ccc(-c3ccc(Cl)cc3)cc2)CCN1c1ccncc1", "strain or isolate": "Clinical isolate 71 (2231) genotype C", "species": "Enterovirus", "cell line": "RD", "method": "cytopathic effect", "read-out": "EC50", "result": "0.076 µM"}
{"SMILES": "CSc1nsc(-c2ccc(OCCCCOc3ccccc3)cc2)c1C#N", "strain or isolate": "Serotype 41 (group B)", "species": "Rhinovirus", "cell line": "HELA-OHIO", "method": "cytopathic effect", "read-out": "EC50", "result": ">20 µM"}
{"SMILES": "Nc1ccn([C@@H]2CS[C@H](CO)O2)c(=O)n1", "species": "Maedi-visna virus", "method": "cytopathic effect", "read-out": "EC50", "result": "5 µM"}
{"SMILES": "Nc1ncnc2c1c(Br)cn2COCCO", "strain or isolate": "Lymphotropic", "species": "Guinea pig herpesvirus", "cell line": "GPE", "method": "virus yield", "read-out": "EC90", "result": "160 µg/mL"}
{"SMILES": "CSc1nsc(SC)c1C#N", "strain or isolate": "TYPE 2", "species": "Adenovirus", "cell line": "HEP-2", "method": "plaque count", "read-out": "EC50", "result": ">12 µM"}
{"SMILES": "CC(=O)NC[C@H]1CN(c2ccc(-c3cncs3)c(F)c2)C(=O)O1", "strain or isolate": "UC12084 (methicillin-resistant)", "species": "Staphylococcus epidermidis", "read-out": "MIC", "result": "≤0.125 µg/mL"}
{"SMILES": "CO[C@H]1/C=C/O[C@@]2(C)Oc3c(C)c(O)c4c(O)c(c5c(c4c3C2=O)NC2(CCN(CC(C)C)CC2)N=5)=NC(=O)/C(C)=C\\C=C\\[C@H](C)[C@H](O)[C@@H](C)[C@@H](O)[C@@H](C)[C@H](OC(C)=O)[C@@H]1C", "strain or isolate": "SHE", "species": "Mycobacterium avium intracellulare", "read-out": "MIC", "result": "0.25 µg/mL"}
{"SMILES": "CCC[C@H](O)C[C@@H]1CC[C@H](C)CCCCC(=O)N(C)[C@@H](Cc2ccc(OCCO)cc2)C(=O)O1", "strain or isolate": "ERG24", "species": "Saccharomyces cerevisiae", "read-out": "MIC", "result": "12.5 µg/mL"}
{"SMILES": "CC(=O)NC[C@H]1CN(c2ccc(-c3cnn(Cc4ccccc4)c3)c(F)c2)C(=O)O1", "strain or isolate": "UC12084 (methicillin-resistant)", "species": "Staphylococcus epidermidis", "read-out": "MIC", "result": "2 µg/mL"}
{"SMILES": "S=c1cc(-c2ccccc2)s[nH]1", "strain or isolate": "TYPE 2", "species": "Adenovirus", "cell line": "HEP-2", "method": "plaque count", "read-out": "EC50", "result": ">90 µM"}
{"SMILES": "COC(=O)[C@H]1[C@@H]2C[C@@H](O[C@@H]3O[C@H](C)[C@@H](O)[C@H](N)[C@@H]3O)/C=C/C=C/C=C/C=C/C=C/C=C/C=C/[C@H](C)[C@@H](O)[C@H](C)[C@H](C)OC(=O)C[C@H](O)C[C@H](O)[C@@H](O)CC[C@H](O)C[C@H](O)C[C@](O)(C[C@@H]1O)O2", "strain or isolate": "TYPE 4", "species": "Adenovirus", "tested at": "100 µg/mL", "cell line": "HFF", "method": "plaque count", "read-out": "inhibition", "result": "10%"}
{"SMILES": "CCOc1ccc(N2CCC(c3ccc(CNC(=O)c4c(CC)nc5ccc(Cl)cn45)c(F)c3)CC2)cc1.Cl", "species": "Mycobacterium avium", "tested at": "0.023 µM", "method": "fluorescence", "read-out": "inhibition", "result": "85%"}
{"SMILES": "CSc1nsc(-c2ccc(C)cc2)c1C#N", "strain or isolate": "Encephalomyocarditis virus", "species": "Encephalomyocarditis virus", "cell line": "L929", "method": "plaque count", "read-out": "EC50", "result": "1 µM"}
{"SMILES": "N#Cc1cc([N+](=O)[O-])ccc1Oc1ccc(Cl)c(Cl)c1", "strain or isolate": "TYPE B4", "species": "Coxsackie virus", "tested at": "1 µg/mL", "cell line": "VERO", "method": "plaque count", "read-out": "inhibition", "result": "93.2%"}
{"SMILES": "CCCC(CCC)C(NC(C)=O)C1C(N=C(N)N)CC(C(=O)O)C1O", "strain or isolate": "H1N1 A/Beijing/252/95", "species": "Influenza A virus", "cell line": "MDCK", "read-out": "EC50", "result": "0.18 µM"}
{"SMILES": "CC(=O)Nc1ccc(C(=O)O)cc1", "species": "Pneumocystis carinii", "tested at": "10 µM", "read-out": "inhibition", "result": "22%"}
{"SMILES": "CC(=O)NC[C@H]1CN(c2ccc(-c3cnn(C(c4ccccc4)(c4ccccc4)c4ccccc4)c3)c(F)c2)C(=O)O1", "strain or isolate": "UC12084 (methicillin-resistant)", "species": "Staphylococcus epidermidis", "read-out": "MIC", "result": ">32 µg/mL"}
{"SMILES": "CSc1nsc(-c2ccc(OCCCCOc3ccc([N+](=O)[O-])cc3)cc2)c1C#N", "strain or isolate": "Serotype 14 (group A)", "species": "Rhinovirus", "cell line": "HELA-OHIO", "method": "cytopathic effect", "read-out": "EC50", "result": ">0.5 µM"}
{"SMILES": "OC[C@@H]1C[C@@H](O)[C@H](n2cnc3c(NC4CCCCCC4)cc(Cl)nc32)O1", "species": "Maedi-visna virus", "method": "cytopathic effect", "read-out": "EC50", "result": "0.15 µM"}
{"SMILES": "CCc1nc2ccc(Cl)cn2c1C(=O)NCc1ccc(-c2ccc(OC(F)(F)F)cc2)c(F)c1", "species": "Mycobacterium avium", "tested at": "0.056 µM", "method": "fluorescence", "read-out": "inhibition", "result": "85%"}
{"SMILES": "Nc1nc2c(ncn2COC(CO)CO)c(=O)[nH]1", "strain or isolate": "CSG", "species": "Vervet monkey cytomegalovirus", "cell line": "HET", "method": "plaque count", "read-out": "EC50", "result": "9 µM"}
{"SMILES": "O[C@@H]1[C@H](O)[C@H](O)CO[C@H]1n1c(Br)nc2cc(Cl)c(Cl)cc21", "species": "Guinea pig cytomegalovirus", "cell line": "HFF", "method": "plaque count", "read-out": "EC50", "result": "27 µM"}
{"SMILES": "Nc1nc(NC2CC2)c2ncn(C=C3CC3CO)c2n1", "species": "Murine cytomegalovirus", "cell line": "HFF", "method": "plaque count", "read-out": "EC50", "result": "2.2 µM"}
{"SMILES": "C=CCc1ccc(O)c(OC)c1", "strain or isolate": "2803", "species": "Candida tropicalis", "method": "turbidity", "read-out": "MIC90", "result": "500 µg/mL"}
{"SMILES": "CC(CCOc1ccc(-c2ccc(Cl)cc2)cc1)CCN1CCN(c2ccncc2)C1=O", "strain or isolate": "Clinical isolate 71 (2231)", "species": "Enterovirus", "cell line": "RD", "method": "cytopathic effect", "read-out": "EC50", "result": "0.038 µM"}
{"SMILES": "Cc1ccc(S(=O)(=O)O)cc1.N/C(=N\\N=C\\c1cc(Br)cc(Br)c1O)NO", "strain or isolate": "ATCC (TYPE 8)", "species": "Adenovirus", "cell line": "A549", "method": "plaque count", "read-out": "EC50", "result": "4.2 µM"}
{"SMILES": "CSc1nsc(-c2ccc(OCCCc3ccccc3)cc2)c1C#N", "strain or isolate": "Serotype 2 (group B)", "species": "Rhinovirus", "cell line": "HELA-OHIO", "method": "cytopathic effect", "read-out": "EC50", "result": ">20 µM"}
{"SMILES": "CC(=O)NC[C@H]1CN(c2ccc(-c3noc(C(N)=O)n3)c(F)c2)C(=O)O1", "strain or isolate": "UC12084 (methicillin-resistant)", "species": "Staphylococcus epidermidis", "read-out": "MIC", "result": "2 µg/mL"}
{"SMILES": "CSc1nsc(-c2cc[n+](C)cc2)c1C#N", "strain or isolate": "Encephalomyocarditis virus", "species": "Encephalomyocarditis virus", "cell line": "L929", "method": "plaque count", "read-out": "EC50", "result": ">1000 µM"}
{"SMILES": "CC1CCC(C(=O)N(c2cc(C#CC(C)(C)C)sc2C(=O)O)C2CCC(O)CC2)CC1", "strain or isolate": "H77 (GT1a)", "species": "Hepatitis C virus", "cell line": "Huh7", "mutations": "V494A", "method": "luciferase", "read-out": "fold resistance", "result": "27.2"}
{"SMILES": "CSc1nsc(-c2ccc(OCCCOc3ccc([N+](=O)[O-])cc3)cc2)c1C#N", "strain or isolate": "Serotype 15 (group B)", "species": "Rhinovirus", "cell line": "HELA-OHIO", "method": "cytopathic effect", "read-out": "EC50", "result": ">1 µM"}
{"SMILES": "CSc1nsc(-c2cccc(Cl)c2)c1C#N", "strain or isolate": "TYPE B1", "species": "Coxsackie virus", "cell line": "HEP-2", "method": "plaque count", "read-out": "EC50", "result": ">10 µM"}
{"SMILES": "Nc1nc2c(ncn2C=C2CC2CO)c(=O)[nH]1", "species": "Rat cytomegalovirus", "cell line": "Rat embryo fibroblasts", "method": "plaque count", "read-out": "EC50", "result": "4.7 µM"}
{"SMILES": "Cc1ccn2c(C(=O)NCc3ccc(N4CCN(c5ccc(OC(F)(F)F)cc5)[C@@H](C)C4)c(C(F)(F)F)c3)c(C)nc2c1", "species": "Mycobacterium avium", "tested at": "0.25 µM", "method": "fluorescence", "read-out": "inhibition", "result": "85%"}
{"SMILES": "OC[C@H]1O[C@@H](n2cnc3c(NC4CCCCCC4)nc(Cl)nc32)[C@H](O)[C@@H]1O", "species": "Maedi-visna virus", "method": "cytopathic effect", "read-out": "EC50", "result": "0.15 µM"}
{"SMILES": "CC(=O)N1CCN(c2ccc(OC[C@H]3CO[C@](Cn4ccnc4)(c4ccc(Cl)cc4Cl)O3)cc2)CC1", "strain or isolate": "Species complex", "species": "Aspergillus versicolor", "read-out": "MIC50", "result": "0.5 µg/mL"}
{"SMILES": "Cc1ccn2c(C(=O)NCc3ccc(C4CCN(c5ccc(OC(F)(F)F)cc5)CC4)c(F)c3)c(C(F)(F)F)nc2c1", "species": "Mycobacterium avium", "tested at": "0.057 µM", "method": "fluorescence", "read-out": "inhibition", "result": "85%"}
{"SMILES": "CC(C)Nc1nc2cc(Cl)c(Cl)cc2n1[C@H]1O[C@@H](CO)[C@H](O)[C@@H]1O", "species": "Rat cytomegalovirus", "cell line": "HFF", "method": "plaque count", "read-out": "EC50", "result": ">11 µM"}
{"SMILES": "O=c1[nH]c(=O)n([C@H]2C[C@H](O)[C@@H](CO)O2)cc1Br", "species": "Murine polyoma virus", "tested at": "0.254 µg/mL", "cell line": "ME", "method": "hybridisation", "read-out": "inhibition", "result": "50.4%"}
{"SMILES": "Nc1nc2c(ncn2[C@@H]2C[C@H](O)[C@@H](O)[C@H]2O)c(=O)[nH]1", "species": "Epstein-Barr virus", "cell line": "DAUDI", "method": "hybridisation", "read-out": "EC50", "result": "0.82 µg/mL"}
{"SMILES": "CCC(CC)[C@H](NC(C)=O)[C@@H]1[C@H](O)[C@@H](C(=O)O)C[C@H]1N=C(N)N", "strain or isolate": "Influenza A/Shandong/09/93 (H3N2)", "species": "Influenza A virus", "cell line": "MDCK", "read-out": "EC50", "result": "0.17 µM"}
{"SMILES": "Cc1ccn2c(C(=O)NCc3ccc(N4CCN(CC(F)F)CC4)c(F)c3)c(C)nc2c1", "species": "Mycobacterium avium", "tested at": "0.93 µM", "method": "fluorescence", "read-out": "inhibition", "result": "85%"}

The first 4 rows once more:

Nc1nc2c(ncn2COC(CO)CO)c(=O)[nH]1 ; species: Guinea pig cytomegalovirus ; cell line: HFF ; method: plaque count ; read-out: EC50 ; result: 191 µM
O=C1N(CCCCCOc2ccc(-c3ccc(Cl)cc3)cc2)CCN1c1ccncc1 ; strain or isolate: Clinical isolate 71 (2231) genotype C ; species: Enterovirus ; cell line: RD ; method: cytopathic effect ; read-out: EC50 ; result: 0.076 µM
CSc1nsc(-c2ccc(OCCCCOc3ccccc3)cc2)c1C#N ; strain or isolate: Serotype 41 (group B) ; species: Rhinovirus ; cell line: HELA-OHIO ; method: cytopathic effect ; read-out: EC50 ; result: >20 µM
Nc1ccn([C@@H]2CS[C@H](CO)O2)c(=O)n1 ; species: Maedi-visna virus ; method: cytopathic effect ; read-out: EC50 ; result: 5 µM